Test results published in paper PMC10800876, “Evaluation of proline-rich antimicrobial peptides as potential lead structures for novel antimycotics against Cryptococcus neoformans” (Frontiers in Microbiology, 2024).
Some compounds share one wording; it may come from a single statement. Starred links: 1 amine or outer side, 2 acyl side, 3 side chain; linkers in the order of their positions; H or OH if unused. Non-standard residues stand in square brackets, D forms with d. Residues, ends and D or L forms follow the SMILES beside them. *: point of attachment. 5FAM = O=C1OC2(c3ccc(O)cc3Oc3cc(O)ccc32)c2ccc(C(=O)*)cc21; δOrn(α-TMG) = CN(C)C(=N[C@@H](CCCN[*:1])C(=O)[*:2])N(C)C; Ac6c = NC1(C(=O)O)CCCCC1; Orn = NCCC[C@H](N)C(=O)O

The molecules below were run on C. neoformans 1841 (assay: Confocal laser scanning microscopy, uptake of Cf-labeled peptides). Conditions: Cf-labeled peptide 25 μmol/L, 30°C, 3 h, CLSM.
Format: cell-based, Cryptococcus neoformans

Question: For `CC[C@H](C)[C@H](NC(=O)[C@@H](CCCNC(=N)N)NC(=O)[C@H](CCCNC(=N)N)NC(=O)[C@@H]1CCCN1C(=O)[C@@H]1CCCN1C(=O)[C@H](CCCNC(=N)N)NC(=O)[C@@H]1CCCN1C(=O)[C@H](CCCNC(=N)N)NC(=O)[C@@H]1CCCN1C(=O)[C@H](CC(C)C)NC(=O)[C@H](Cc1ccc(O)cc1)NC(=O)[C@@H]1CCCN1C(=O)[C@@H]1CCCN1C(=O)[C@H](CCCCN)NC(=O)[C@H](CC(=O)O)NC(=O)[C@@H](NC(=O)c1ccc2c(c1)C(=O)OC21c2ccc(O)cc2Oc2cc(O)ccc21)C(C)C)C(=O)N[C@@H](Cc1ccc(O)cc1)C(=O)N[C@@H](CC(N)=O)C(=O)N[C@H](CCCNC(=N)N)C(N)=O` [Cf-Onc112] (5FAM-VDKPPYLPRPRPPR[dR]IYN[dR]-NH2), which “fluorescence in cells (intracellular uptake)” value (shortened to “fluorescence in cells”) is on record?
Answer: intense, non-uniformly distributed fluorescence, mainly in the cytoplasmic region

Question: Which “fluorescence in cells” value does the source give for `CC[C@H](C)[C@H](NC(=O)[C@H](Cc1ccc(O)cc1)NC(=O)[C@@H](NC(=O)[C@@H]1CCCN1C(=O)[C@H](CCCNC(=N)N)NC(=O)[C@H](CC(N)=O)NC(=O)[C@H](CC(N)=O)NC(=O)CNC(=O)c1ccc2c(c1)C(=O)OC21c2ccc(O)cc2Oc2cc(O)ccc21)C(C)C)C(=O)N1CCC[C@H]1C(=O)N[C@@H](CCC(N)=O)C(=O)N1CCC[C@H]1C(=O)N[C@@H](CCCNC(=N)N)C(=O)N1CCC[C@H]1C(=O)N1CCC[C@H]1C(=O)N[C@@H](Cc1c[nH]cn1)C(=O)N1CCC[C@H]1C(=O)N[C@@H](CCCNC(=N)N)C(=O)N[C@@H](CC(C)C)C(=O)O` [Cf-Apidaecin 1b] (5FAM-GNNRPVYIPQPRPPHPRL-OH) here?
Answer: no fluorescence could be detected in the majority of cells

Question: How did the “fluorescence in cells” value turn out when `CC[C@H](C)[C@H](NC(=O)[C@H](Cc1ccc(O)cc1)NC(=O)[C@@H](NC(=O)[C@@H]1CCCN1C(=O)[C@H](CCCNC(=N)N)NC(=O)[C@H](CC(N)=O)NC(=O)[C@H](CC(N)=O)NC(=O)[C@H](CCCNC(=O)c1ccc2c(c1)C(=O)OC21c2ccc(O)cc2Oc2cc(O)ccc21)N=C(N(C)C)N(C)C)C(C)C)C(=O)N1CCC[C@H]1C(=O)N[C@@H](CCCNC(=N)N)C(=O)N1CCC[C@H]1C(=O)N[C@@H](CCCNC(=N)N)C(=O)N1CCC[C@H]1C(=O)N1CCC[C@H]1C(=O)N[C@@H](Cc1c[nH]cn1)C(=O)N1CCC[C@H]1C(=O)N[C@@H](CCCNC(=N)N)C(=O)N[C@@H](CC(C)C)C(N)=O` [Cf-Api88] (5FAM-[δOrn(α-TMG)]NNRPVYIPRPRPPHPRL-NH2) was run?
Answer: intense, non-uniformly distributed fluorescence, mainly in the cytoplasmic region

Question: With `CC(C)C[C@H](NC(=O)[C@H](Cc1ccc(O)cc1)NC(=O)[C@@H]1CCCN1C(=O)[C@H](CCCNC(=N)N)NC(=O)[C@@H]1CCCN1C(=O)[C@H](CCCCN)NC(=O)[C@H](CCCCN)NC(=O)[C@@H]1CCCN1C(=O)[C@H](CCCNC(=N)N)NC(=O)C1(NC(=O)c2ccc3c(c2)C(=O)OC32c3ccc(O)cc3Oc3cc(O)ccc32)CCCCC1)C(=O)N1CCC[C@H]1C(=O)N[C@@H](CCCNC(=N)N)C(=O)N1CCC[C@H]1C(=O)N[C@@H](CCCNC(=N)N)C(=O)N1CCC[C@H]1C(=O)N1CCC[C@H]1C(=O)N[C@@H](CCCNC(=N)N)C(=O)N1CCC[C@H]1C(=O)N[C@H](C(=O)N[C@@H](CCCNC(=N)N)C(N)=O)C(C)C` [Cf-Chex1Arg20 D4K] (5FAM-[Ac6c]RPKKPRPYLPRPRPPRPVR-NH2) as the molecule, how does the “fluorescence in cells” value read?
Answer: intense, non-uniformly distributed fluorescence, mainly in the cytoplasmic region

Question: Which “fluorescence in cells” value does the source give for `CC[C@H](C)[C@H](NC(=O)[C@H](Cc1ccc(O)cc1)NC(=O)[C@@H](NC(=O)[C@@H]1CCCN1C(=O)[C@H](CCCNC(=N)N)NC(=O)[C@H](CC(N)=O)NC(=O)[C@H](CC(N)=O)NC(=O)[C@H](CCCNC(=O)c1ccc2c(c1)C(=O)OC21c2ccc(O)cc2Oc2cc(O)ccc21)N=C(N(C)C)N(C)C)C(C)C)C(=O)N1CCC[C@H]1C(=O)N[C@@H](CCCNC(=N)N)C(=O)N1CCC[C@H]1C(=O)N[C@@H](CCCNC(=N)N)C(=O)N1CCC[C@H]1C(=O)N1CCC[C@H]1C(=O)N[C@@H](Cc1c[nH]cn1)C(=O)N1CCC[C@H]1C(=O)N[C@@H](CCCNC(=N)N)C(=O)N[C@@H](CC(C)C)C(=O)O` [Cf-Api137] (5FAM-[δOrn(α-TMG)]NNRPVYIPRPRPPHPRL-OH) here?
Answer: much weaker or no fluorescence

Question: `CC(C)C[C@H](NC(=O)[C@H](Cc1ccc(O)cc1)NC(=O)[C@@H]1CCCN1C(=O)[C@H](CCCNC(=N)N)NC(=O)[C@@H]1CCCN1C(=O)[C@H](CCCCN)NC(=O)[C@H](CC(=O)O)NC(=O)[C@@H]1CCCN1C(=O)[C@H](CCCNC(=N)N)NC(=O)C1(NC(=O)c2ccc3c(c2)C(=O)OC32c3ccc(O)cc3Oc3cc(O)ccc32)CCCCC1)C(=O)N1CCC[C@H]1C(=O)N[C@@H](CCCNC(=N)N)C(=O)N1CCC[C@H]1C(=O)N[C@@H](CCCNC(=N)N)C(=O)N1CCC[C@H]1C(=O)N1CCC[C@H]1C(=O)N[C@@H](CCCNC(=N)N)C(=O)N1CCC[C@H]1C(=O)N[C@H](C(=O)N[C@@H](CCCNC(=N)N)C(N)=O)C(C)C` [Cf-Chex1Arg20] (5FAM-[Ac6c]RPDKPRPYLPRPRPPRPVR-NH2) was tested. Which “fluorescence in cells” value did it give?
Answer: intense, non-uniformly distributed fluorescence, mainly in the cytoplasmic region

Question: How did the “fluorescence in cells” value turn out when `CC[C@H](C)[C@H](NC(=O)[C@H](CCCNC(=O)c1ccc2c(c1)C(=O)OC21c2ccc(O)cc2Oc2cc(O)ccc21)N=C(N(C)C)N(C)C)C(=O)N[C@@H](CCCN)C(=O)N[C@H](C(=O)N[C@@H](CCCN)C(=O)N[C@@H](CCCNC(=N)N)C(=O)N1CCC[C@H]1C(=O)N[C@H](C(=O)N[C@@H](Cc1ccc(O)cc1)C(=O)N[C@@H](CCCN)C(=O)N1CCC[C@H]1C(=O)N[C@@H](CCCNC(=N)N)C(=O)N1CCC[C@H]1C(=O)N[C@@H](CCCNC(=N)N)C(=O)N1CCC[C@H]1C(=O)N1CCC[C@H]1C(=O)N[C@@H](Cc1c[nH]cn1)C(=O)N1CCC[C@H]1C(=O)N[C@@H](CCCNC(=N)N)C(=O)N[C@@H](CC(C)C)C(=O)O)C(C)C)[C@@H](C)CC` [Cf-Api795] (5FAM-[δOrn(α-TMG)]I[Orn]I[Orn]RPVY[Orn]PRPRPPHPRL-OH) was run?
Answer: intense, non-uniformly distributed fluorescence, mainly in the cytoplasmic region
